According to publication PMC11106956, “Population pharmacokinetics of primaquine and its metabolites in African males” (Malaria Journal, 2024):

Details: plasma; single oral PQ 0.40-0.50 mg/kg

## Primaquine carbamoyl-glucuronide
  CF, proportional conversion factor between capillary and venous drug measurements, population estimate (%RSE): 40.1 (6.97%)
